Test results from US9388389B2, “JFH-1 based HCV cell culture systems for NS5A of genotypes 1-7” (Hvidovre Hospital, priority 2009, dated 2016).

Tested on: J6/JFH1 recombinants with genotype specific NS5A
Test: IFN-alpha 2b treatment of infected cultures
Format: cell-based, hepatitis C virus
Settings: treated one and two days after infection, NS3 immunostaining on day three; FIG. 15
Method: Huh7.5 cells were infected with J6/JFH1 with NS5A of the indicated isolate (or ISDR type). J6/JFH1 was included with two infectious doses to control for impact of dose variability. The infectious dose of other recombinants was in the range between. Cultures were treated with IFN-alpha 2b at the given dose one and two days after infection. On day three cells were fixed and immunostained for NS3 expression. The number of single infected cells was determined by automated counting of individual wells. Values are shown as percentage infected cells compared to the average for non-treated controls of the given recombinant. […]
5×10^3 naïve Huh7.5 cells were plated per well in a poly-D-lysine coated 96-well plate (Nunc, Roskilde, D K) one day before infection with different recombinant viruses. […] In parallel, cell viability was monitored with CellTiter™ 96 AQueous One Solution Cell Proliferation Assay (Promega, Madison, Wis. USA). The number of single infected cells was determined by automated counting of individual wells as described above.
J6/JFH1 recombinants with genotype specific NS5A and the genotype 1b ISDR mutant were used to study the antiviral effect of IFN-alpha in cell culture. […] The number of single infected cells was determined by automated counting (FIG. 15). […]

For “IFN-alpha: IFN-alpha 2b (Schering-Plough)”, the “antiviral effect on cell culture infection” value was “inhibited cell culture infection with different NS5A genotypes in a dose-dependent manner”.
